Changes are numbered by the printed parent chain. In names and notes the source's numbering stands.
B1: 35PA83 6.20 VH A122T (antibody, V domains shown)
VH: QVQLQESGPGLLKPSETLSLTCAVSGDSISGGYYWSWIRQSPGKGLEWIGLIYGSTADTRYNPSLKGRVTISKDTSKNQLSLQLRSVTAADTAVYYCARSGYNFWSGEYYGLDSWGQGTVVTVSS
VL: AIQLTQSPSSLSAYVGDKVTITCHASQGINSWLAWYQQKPGKAPKLLIYKASSLLSGVPSRFSGSGSGTDYTLTISSLQSEDFASYYCLQYDSAPLAFGPGTKLDIK
B2: 35PA83 6.20 VH V123L (antibody, V domains shown)
VH: B1 VH with T119A, V120L
VL: B1 VL
B3: 35PA83 6.20 VH S45P (antibody, V domains shown)
VH: B1 VH with S41P, T119A
VL: B1 VL
B4: 35PA83 6.20 VL Y87F (antibody, V domains shown)
VH: B1 VH with T119A
VL: B1 VL with Y71F
B5: 35PA83 6.20 VL K18R (antibody, V domains shown)
VH: B1 VH with T119A
VL: B1 VL with K18R
B6: 35PA83 6.20 VL H24R (antibody, V domains shown)
VH: B1 VH with T119A
VL: B1 VL with H24R
B7: 35PA83 6.20 VH R92S (antibody, V domains shown)
VH: B1 VH with R85S, T119A
VL: B1 VL
B8: 35PA83 6.20 VH L87F (antibody, V domains shown)
VH: B1 VH with L80F, T119A
VL: B1 VL
B9: 35PA83 6.20 VH L13V (antibody, V domains shown)
VH: B1 VH with L12V, T119A
VL: B1 VL
B10: 35PA83 6.20 VL Y14S (antibody, V domains shown)
VH: B1 VH with T119A
VL: B1 VL with Y14S
B11: 35PA83 6.20 VH Q90K (antibody, V domains shown)
VH: B1 VH with Q83K, T119A
VL: B1 VL
B12: 35PA83 6.20 VL D119E (antibody, V domains shown)
VH: B1 VH with T119A
VL: B1 VL with D105E
B13: 35PA83 6.20 VH K80V (antibody, V domains shown)
VH: B1 VH with K73V, T119A
VL: B1 VL
B14: 35PA83 6.20 VH S40G (antibody, V domains shown)
VH: B1 VH with S36G, T119A
VL: B1 VL
B15: 35PA83 6.20 VL S101T (antibody, V domains shown)
VH: B1 VH with T119A
VL: B1 VL with S85T

Target: Protective Antigen PA83 (83 kDa) of Bacillus anthracis (Bacillus anthracis, strain of …, UniProt P13423)

Binder | koff [s⁻¹]
B1 | 0.000263
B2 | 0.000293
B3 | 0.000431
B4 | 0.000129
B5 | 0.000345
B6 | 0.000435
B7 | 0.000301
B8 | 0.000373
B9 | 0.000131
B10 | 0.000439
B11 | 0.00011
B12 | 0.00028
B13 | 0.000908
B14 | 0.00011
B15 | 0.000159
